Assay results published in the supplement of paper PMC9931576.
Substitutions are numbered along the chain they refer to. Human monoclonal antibodies against the spike receptor-binding domain (heavy:light variable regions). IC50 against pseudoviruses bearing the spike of naturally observed variants; lower = stronger; >10 µg/ml means not reached at the top dose. No active / inactive call. The stated detection limit is 0.0005 µg/ml; values near or below 0.001 µg/ml lie at the floor of the assay.

B1: BD55-6640 (protein)
chain 1: QVQLVQSGAEVKKPGASVKVSCKASGYTFASHDIHWVRQATGQGPEWMGWMNPNSGDTGFAHKFQGRVAMTRNTSINTAYMELSSLRSEDTAVYFCAIAFSSAHQPLLFVDYYYGLDVWGQGSTVTVSS
chain 2: DIQMTQSPSSLSASVGDRVTIICRASQSISNYLNWYQQKPGKAPKLLIYGASSLQSGVPSRFSGSGSGTDFTLTISNLQPEDFATYYCQQSYSTPPTFGGGTKVEIK
B2: BD55-6673 (protein)
chain 1: EVQLVESGGGLVKPGRSLRLSCTASGFTFGDYAMSWFRQAPGKGLEWVGFIRSKTHGGTTEDAASVKGRFTISRDDSKSIAYLQMNSLKTEDTAVYYCTREGTYSYYYYYAMDVWGQGTTVTVSS
chain 2: B1 chain 2 with I22T, N31Y, G50A, N77S, Q90H, T94I, P96I, G100Q, K103R, V104L
B3: BD55-6665 (protein)
chain 1: QVQLVQSGAEVKKPGASVKVSCKASGYTFTSYDIHWVRQATGQGLEWMGRMNPSSANTDYAHKFQSRVTMTRNTSINTVYMELSGLRFEDTAVYYCAREGRDLGFYYYYGMDVWGQGTTVTVSS
chain 2: DIQMTQSPSSLSASVGDKITITCRASQSITTYLNWYQQKPGKPPKLLVYAASSLQSGVPSRFSGSGSGTDFTLTISSLQPEDFATYHCQQSYSTPTTFGQGTQVEIK
B4: BD55-6642 (protein)
chain 1: QVQLVQSGAEMKKPGASVKVSCRASGYTFTNYHIHWVRQVPGLGLEWMGIINPVAGVTGYAQKFEGRVTMTRDTSTSTVYMELNSLTSEDTAVYFCARDFAFSREYSGYDILDTRWFDPWGQGTLVTVSS
chain 2: DIVMTQSPDSLAVSLGERATINCKSSQSVLYSSNNKNYLAWYQQRPGQPPKVLIYWASTRQSGVPDRFSGSGSGTDFTLTISSLQAEDVAVYYCQQYYSSPLTFGGGTKVEIR
B5: BD55-6672 (protein)
chain 1: QVTLKESGPVLVKPTETLTLTCTVSGFSLSNAKLGVSWIRQPPGKALEWLAHIFSNDEKSYNTFLMSRLTISKDTSRSQVVLTLTNLDPMDTGTYHCARLSNSWFGYYFDYWGQGTLVTVSS
chain 2: DIQMTQSPSSLSASIGDRVTITCRASQSISSYLNWYQQKSGEAPKLLIYAASTLQTGVPSRFSGSGSGTDFTLTISGLQPDDFAIYYCQQSYTTLLTFGGGTKVEIK
B6: BD55-6636 (protein)
chain 1: EVQLLESGGGLGQPGGSLRLSCTASGFTFSSYSMNWVRQAPGRGLEWVSVIDRSGAGTFYADSVKGRFTISRDNSKNTVYLQLNSLTDEDTAIYYCAKDFGPTIAFDAFDVWGQGTIVTVSS
chain 2: DIQMTQSPSSLSASIGDRVTITCRASQSISTFLNWYQQKSGKAPKLLIYGSSNLQSGVPSRFSGSGSGTHFTLTISSLQPEDFATYYCQQSYTSPPPTFGGGTKVEIK
B7: BD55-6632 (protein)
chain 1: QVQLVESGGGVVQPGSSLRLSCAASGFIFSNYDIHWVRQAPGKGLEWVAVISYDGSSKFYADSVKGRFAISRDNSKSTLQLSSLRPEDTAVYYCAKEQSYDTLTGLYYFDYWGQGTLVTVSS
chain 2: DIQMTQSPSSLSASVGDRVTITCRASQSIGNHLNWYQQKPGKAPKPLIYAASNLQSGVPSRFSGSGAGTHFTLTISSLQPEDFATYYCQQNYNTPQITFGPGTKVDV
B8: BD55-6649 (protein)
chain 1: EVQLVESGGGLVQPGGSLRLSCAASGFTFNTYDMHWIRQVSGKGLEWVSTIGTAGDTYYPDSVKGRFTISRENVKNSLYLQMSSLRAGDTATYYCVRASTYGYYVYFDYWGQGTLVTVSS
chain 2: DFQMTQSPSSLSASVGDTVTITCRASQSIGRYLNWYQQKPGKAPKLLIYVVSTLQSGVPSRFSGSGSGTDFSLTIRSLQPEDFATYYCQQSYSTAEYTFGQGTKLEIK
B9: BD55-6646 (protein)
chain 1: EVQLVESGGGLVQPGGSLRISCAVSGFTFRTYWMTWVRQAPGKGLEWVANINQDGTEEYYVDSVKGRFTISRDNAENSLHLQMNNLRAEDSAVYYCARGEKDVVVVGPIPMEYVQHWGQGTLVTVSS
chain 2: SYELTQAPSVSVSPGQTARITCSADAFPRQYGHWYQQKPGQAPVLVIYKDRERPSGIPERFSGSSSGTTVTLTISGVQAEDEADYYCQTADSSGTKMVFGGGTKLAVL
B10: BD55-6629 (protein)
chain 1: QLQLQESGPGLVKPSETLSLTCSVSGGFISSTIYYWGWIRQPPGKRLEWIGSLDYSGDTYSSPSLKSRVTISVDTSKNQFSLNLRSVTAADTAVYYCARPRLISGYSNDWEGPTYYFDSWGQGILVTVSS
chain 2: SYVLTQPPSVSVAPGETATITCGGNNLGTTSVHWYQQKPGQAPVVVVFDNSGRPSGIPERLSGSNSGNTATLTISRVEDGDEADYYCQVWDKSSNVVIFGGGTKVSVL
B11: BD55-6622 (protein)
chain 1: QVQLVQSGSELKKPGASVKVSCKASGYTFANYAMHWVRQAPGQGLEWMGWINTNTGNPTYGQGFTGRFVFSLDTSVSTAYLQINSLKAEDTAVYYCARGDRNYYGYEASDIWGQGTMVTVSS
chain 2: DIRLTQSPPSLSASVGDRVTITCRASQSISNYLNWYQQKPGKAPNLLIYAASSLQSGVPSRFSGSGSGTDFSLTISSLQPEDFATYYCQQSYSSHLFTFGGGTTVEI
B12: BD55-6669 (protein)
chain 1: EVRLVESGGGLVKPGGSLRLSCAASGFSFSDAWMSWVRQAPGKGLEWVGHIKSEISGGTTDYAAPVKGRFTISRDDSKNTVYLQMNSLKTEDTAMYYCVSSDIWRYYHYGMDVWGPGTTVTVSS
chain 2: DIQMTQSPSILSASVGDRVTITCRASQSISSWLAWYQQKPGKAPKLLIYKASTLESGVPSRFSGSGSGTEFTLTISSLQPDDFATYYCQQYNSYPLTFGGGTKVQIK

What was measured:
Assay in all cases: pseudovirus neutralization IC50; higher = weaker neutralization
[1] = target: SARS-CoV-2 Omicron BA.1 spike pseudovirus
Description: (§1)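 Single-round VSV luciferase pseudovirus mixed with antibody dilutions for 1 h and put on Huh-7 cells for about a day; IC50 from the dose curve.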

[2] = target: SARS-CoV-2 Omicron BA.2 spike pseudovirus
Description: as §1

[3] = target: SARS-CoV-2 Omicron BA.2.75 spike pseudovirus
Description: as §1

[4] = target: SARS-CoV-2 Omicron BA.5 spike pseudovirus
Description: as §1

[5] = target: SARS-CoV-2 Omicron BQ.1.1 spike pseudovirus
Description: as §1

[6] = target: SARS-CoV-2 Omicron XBB spike pseudovirus
Description: as §1

[7] = target: SARS-CoV-2 early D614G spike pseudovirus
Description: as §1

Row | Binder | pseudovirus neutralization IC50 [1] [µg/mL] | pseudovirus neutralization IC50 [2] [µg/mL] | pseudovirus neutralization IC50 [3] [µg/mL] | pseudovirus neutralization IC50 [4] [µg/mL] | pseudovirus neutralization IC50 [5] [µg/mL] | pseudovirus neutralization IC50 [6] [µg/mL] | pseudovirus neutralization IC50 [7] [µg/mL]
1 | B1 | > 10 | > 10 | > 10 | > 10 | > 10 | > 10 | > 10
2 | B2 | > 10 | > 10 | > 10 | > 10 | > 10 | > 10 | > 10
3 | B3 | > 10 | > 10 | > 10 | > 10 | > 10 | > 10 | > 10
4 | B4 | > 10 | > 10 | > 10 | > 10 | > 10 | > 10 | 0.135
5 | B5 | > 10 | > 10 | > 10 | > 10 | > 10 | > 10 | > 10
6 | B6 | > 10 | > 10 | > 10 | > 10 | > 10 | > 10 | > 10
7 | B7 | 4.76 | 4.83 | 9.45 | 5.92 | 6.21 | 4.15 | 0.778
8 | B8 | > 10 | > 10 | > 10 | > 10 | > 10 | > 10 | > 10
9 | B9 | > 10 | > 10 | > 10 | > 10 | > 10 | > 10 | > 10
10 | B10 | > 10 | > 10 | > 10 | > 10 | > 10 | > 10 | 9.4
11 | B11 | 2.89 | 2.92 | 1.39 | 2.83 | > 10 | > 10 | 4.33
12 | B12 | > 10 | > 10 | > 10 | > 10 | > 10 | > 10 | > 10
